We go through nine molecules from paper PMC6669600 (Viruses, 2019).

Experiment [1] concerns HIV-1HXB2 Env-mediated cell-cell fusion. In kind it is cell-based. Conditions: TZM-bl target, HL2/3 effector, 6 h coculture at 37 C, luciferase; triplicate, repeated three times, mean ± SD; SD; read-out: IC50, inhibition of HIV-1HXB2 Env-mediated cell-cell fusion.
Experiment [2] addresses N36 (gp41 NHR-derived target mimic peptide) (Human immunodeficiency virus type 1 group M subtype B, UniProt P04578). Briefly: CD spectroscopy of inhibitor complexed with N36. The experiment is classed as binding, HIV-1. Conditions: thermal denaturation of complex at 222 nm, 20-98 C, 2 C/min, each peptide 10 μM in PBS; repeated two times, representative data.

In general, IC50 refers to the point on the concentration scale where inhibition reaches its midpoint. As to `CC[C@H](C)[C@H](NC(=O)[C@H](CC(C)C)NC(=O)[C@H](CCC(=O)O)NC(=O)[C@H](CCC(=O)O)NC(=O)[C@@H](NC(=O)[C@H](CCCCN)NC(=O)[C@H](CCCCN)NC(=O)[C@@H](NC(=O)[C@H](Cc1ccc(O)cc1)NC(=O)[C@H](CCC(=O)O)NC(=O)[C@H](CCC(=O)O)NC(=O)[C@@H](NC(=O)[C@H](CCCCN)NC(=O)[C@H](CCCCN)NC(=O)[C@H](CC(=O)O)NC(=O)[C@H](Cc1c[nH]c2ccccc12)NC(=O)[C@H](CCC(=O)O)NC(=O)[C@H](CCC(=O)O)NC(=O)[C@H](Cc1c[nH]c2ccccc12)NC(C)=O)[C@@H](C)CC)[C@@H](C)O)[C@@H](C)CC)C(=O)N[C@@H](CCCCN)C(=O)N[C@@H](CCCCN)C(=O)N[C@@H](CO)C(=O)N[C@@H](CCC(=O)O)C(=O)N[C@@H](CCC(=O)O)C(=O)N[C@@H](CCC(N)=O)C(=O)N[C@@H](CCC(N)=O)C(N)=O` [SC26EK], in experiment [1], the IC50 turned out to be 36.2 ± 4.2 nM. Besides, the “CD data (with N36) Tm (°C)” value in experiment [2] is 57.8 °C.
With `CC[C@H](C)[C@H](NC(=O)[C@H](CC(C)C)NC(=O)[C@H](CCC(=O)O)NC(=O)[C@H](CCC(=O)O)NC(=O)[C@@H](NC(=O)[C@H](CCCCN)NC(=O)[C@H](CCCCN)NC(=O)[C@@H](NC(=O)[C@H](Cc1ccc(O)cc1)NC(=O)[C@H](CCC(=O)O)NC(=O)[C@H](CCC(=O)O)NC(=O)[C@@H](NC(=O)[C@H](CCCCN)NC(=O)[C@H](CCCCN)NC(=O)[C@H](CC(=O)O)NC(=O)[C@H](Cc1c[nH]c2ccccc12)NC(=O)[C@H](CCC(=O)O)NC(=O)[C@H](CCC(=O)O)NC(=O)[C@H](Cc1c[nH]c2ccccc12)NC(C)=O)[C@@H](C)CC)[C@@H](C)O)[C@@H](C)CC)C(=O)N[C@@H](CCCCN)C(=O)N[C@@H](CCCCN)C(=O)N[C@@H](CO)C(=O)N[C@@H](CCC(=O)O)C(=O)N[C@@H](CCC(=O)O)C(=O)N[C@@H](CCC(N)=O)C(=O)N[C@@H](CCC(N)=O)C(=O)N[C@@H](CCCCN)C(=O)N[C@@H](CCCCN)C(=O)N[C@@H](CC(N)=O)C(=O)N[C@@H](CCC(=O)O)C(=O)N[C@@H](CCCCN)C(=O)N[C@@H](CCC(=O)O)C(=O)N[C@@H](CC(C)C)C(=O)N[C@@H](CCCCN)C(N)=O` [SC34EK, reference compound], the IC50 in experiment [1] was 0.7 ± 0.2 nM. Also, the “CD data (with N36) Tm (°C)” value in experiment [2] stood at 74.3 °C.
The corresponding values for `CC[C@H](C)[C@H](NC(=O)[C@H](CC(C)C)NC(=O)[C@H](CCC(=O)O)NC(=O)[C@H](CCC(=O)O)NC(=O)[C@@H](NC(=O)[C@H](CCCCN)NC(=O)[C@H](CCCCN)NC(=O)[C@@H](NC(=O)[C@H](Cc1ccc(O)cc1)NC(=O)[C@H](CCC(=O)O)NC(=O)[C@H](CCC(=O)O)NC(=O)[C@@H](NC(=O)[C@H](CCCCN)NC(=O)[C@H](CCCCN)NC(=O)[C@H](CC(=O)O)NC(=O)[C@H](Cc1c[nH]c2ccccc12)NC(=O)[C@H](CCC(=O)O)NC(=O)[C@H](CCC(=O)O)NC(=O)[C@H](Cc1c[nH]c2ccccc12)NC(=O)[C@@H](NC(=O)[C@H](CCSC)NC(C)=O)[C@@H](C)O)[C@@H](C)CC)[C@@H](C)O)[C@@H](C)CC)C(=O)N[C@@H](CCCCN)C(=O)N[C@@H](CCCCN)C(=O)N[C@@H](CO)C(=O)N[C@@H](CCC(=O)O)C(N)=O` [MT-SC23EK] are 1.9 ± 0.7 nM and 70.5 °C.
`CC[C@H](C)[C@H](NC(=O)[C@H](CC(C)C)NC(=O)[C@H](CCC(=O)O)NC(=O)[C@H](CCC(=O)O)NC(=O)[C@@H](NC(=O)[C@H](CCCCN)NC(=O)[C@H](CCCCN)NC(=O)[C@@H](NC(=O)[C@H](Cc1ccc(O)cc1)NC(=O)[C@H](CCC(=O)O)NC(=O)[C@H](CCC(=O)O)NC(=O)[C@@H](NC(=O)[C@H](CCCCN)NC(=O)[C@H](CCCCN)NC(=O)[C@H](CC(=O)O)NC(=O)[C@H](Cc1c[nH]c2ccccc12)NC(=O)[C@H](CCC(=O)O)NC(=O)[C@H](CCC(=O)O)NC(=O)[C@H](Cc1c[nH]c2ccccc12)NC(C)=O)[C@@H](C)CC)[C@@H](C)O)[C@@H](C)CC)C(=O)N[C@@H](CCCCN)C(=O)N[C@@H](CCCCN)C(=O)N[C@@H](CO)C(=O)N[C@@H](CCC(=O)O)C(=O)N[C@@H](CCC(=O)O)C(=O)N[C@@H](CCC(N)=O)C(N)=O` [SC25EK]: the IC50 in experiment [1] was 41.5 ± 3.1 nM. Also, the “CD data (with N36) Tm (°C)” value in experiment [2] turned out to be 57.3 °C.
The corresponding values for `CC[C@H](C)[C@H](NC(=O)[C@H](CC(C)C)NC(=O)[C@H](CCC(=O)O)NC(=O)[C@H](CCC(=O)O)NC(=O)[C@@H](NC(=O)[C@H](CCCCN)NC(=O)[C@H](CCCCN)NC(=O)[C@@H](NC(=O)[C@H](Cc1ccc(O)cc1)NC(=O)[C@H](CCC(=O)O)NC(=O)[C@H](CCC(=O)O)NC(=O)[C@@H](NC(=O)[C@H](CCCCN)NC(=O)[C@H](CCCCN)NC(=O)[C@H](CC(=O)O)NC(=O)[C@H](Cc1c[nH]c2ccccc12)NC(=O)[C@H](CCC(=O)O)NC(=O)[C@H](CCC(=O)O)NC(=O)[C@H](Cc1c[nH]c2ccccc12)NC(C)=O)[C@@H](C)CC)[C@@H](C)O)[C@@H](C)CC)C(=O)N[C@@H](CCCCN)C(N)=O` [SC20EK] are 202 ± 5.4 nM and 57.5 °C.
The corresponding values for `CC[C@H](C)[C@H](NC(=O)[C@H](CC(C)C)NC(=O)[C@H](CCC(=O)O)NC(=O)[C@H](CCC(=O)O)NC(=O)[C@@H](NC(=O)[C@H](CCCCN)NC(=O)[C@H](CCCCN)NC(=O)[C@@H](NC(=O)[C@H](Cc1ccc(O)cc1)NC(=O)[C@H](CCC(=O)O)NC(=O)[C@H](CCC(=O)O)NC(=O)[C@@H](NC(=O)[C@H](CCCCN)NC(=O)[C@H](CCCCN)NC(=O)[C@H](CC(=O)O)NC(=O)[C@H](Cc1c[nH]c2ccccc12)NC(=O)[C@H](CCC(=O)O)NC(=O)[C@H](CCC(=O)O)NC(=O)[C@H](Cc1c[nH]c2ccccc12)NC(C)=O)[C@@H](C)CC)[C@@H](C)O)[C@@H](C)CC)C(=O)N[C@@H](CCCCN)C(=O)N[C@@H](CCCCN)C(=O)N[C@@H](CO)C(=O)N[C@@H](CCC(=O)O)C(=O)N[C@@H](CCC(=O)O)C(=O)N[C@@H](CCC(N)=O)C(=O)N[C@@H](CCC(N)=O)C(=O)N[C@@H](CCCCN)C(=O)N[C@@H](CCCCN)C(=O)N[C@@H](CC(N)=O)C(=O)N[C@@H](CCC(=O)O)C(=O)N[C@@H](CCCCN)C(=O)N[C@@H](CCC(=O)O)C(N)=O` [SC32EK] are 0.8 ± 0.2 nM and 69.7 °C.
The corresponding values for `CC[C@H](C)[C@H](NC(=O)[C@H](CC(C)C)NC(=O)[C@H](CCC(=O)O)NC(=O)[C@H](CCC(=O)O)NC(=O)[C@@H](NC(=O)[C@H](CCCCN)NC(=O)[C@H](CCCCN)NC(=O)[C@@H](NC(=O)[C@H](Cc1ccc(O)cc1)NC(=O)[C@H](CCC(=O)O)NC(=O)[C@H](CCC(=O)O)NC(=O)[C@@H](NC(=O)[C@H](CCCCN)NC(=O)[C@H](CCCCN)NC(=O)[C@H](CC(=O)O)NC(=O)[C@H](Cc1c[nH]c2ccccc12)NC(=O)[C@H](CCC(=O)O)NC(=O)[C@H](CCC(=O)O)NC(=O)[C@H](Cc1c[nH]c2ccccc12)NC(C)=O)[C@@H](C)CC)[C@@H](C)O)[C@@H](C)CC)C(=O)N[C@@H](CCCCN)C(=O)N[C@@H](CCCCN)C(=O)N[C@@H](CO)C(=O)N[C@@H](CCC(=O)O)C(=O)N[C@@H](CCC(=O)O)C(N)=O` [SC24EK] are 75.7 ± 11.2 nM and 57.5 °C.
As for `CC[C@H](C)[C@H](NC(=O)[C@H](CCC(N)=O)NC(=O)[C@H](CCC(N)=O)NC(=O)[C@H](CC(N)=O)NC(=O)[C@H](CCC(N)=O)NC(=O)[C@H](CO)NC(=O)[C@H](CCCCN)NC(=O)[C@H](CCCCN)NC(=O)[C@@H](NC(=O)[C@H](CC(C)C)NC(=O)[C@H](CCC(=O)O)NC(=O)[C@H](CCC(=O)O)NC(=O)[C@@H](NC(=O)[C@H](CCCCN)NC(=O)[C@H](CCCCN)NC(=O)[C@@H](NC(=O)[C@H](Cc1ccc(O)cc1)NC(=O)[C@H](CCC(=O)O)NC(=O)[C@H](CCC(=O)O)NC(=O)[C@@H](NC(=O)[C@H](CCCCN)NC(=O)[C@H](CCCNC(=N)N)NC(=O)[C@H](CC(=O)O)NC(=O)[C@H](Cc1c[nH]c2ccccc12)NC(=O)[C@H](CCC(=O)O)NC(=O)[C@H](CCC(=O)O)NC(=O)[C@H](Cc1c[nH]c2ccccc12)NC(=O)[C@@H](NC(=O)[C@H](CCSC)NC(C)=O)[C@@H](C)O)[C@@H](C)CC)[C@@H](C)O)[C@@H](C)CC)[C@@H](C)CC)C(=O)N[C@@H](CC(=O)O)C(=O)N[C@@H](CC(C)C)C(N)=O` [MT-WQ-IDL, reference compound], the half-inhibitory concentration (IC50) in experiment [1] is 0.7 ± 0.1 nM. For the same molecule, the “CD data (with N36) Tm (°C)” value in experiment [2] is 74.6 °C.
Regarding `CC[C@H](C)[C@H](NC(=O)[C@H](CC(C)C)NC(=O)[C@H](CCC(=O)O)NC(=O)[C@H](CCC(=O)O)NC(=O)[C@@H](NC(=O)[C@H](CCCCN)NC(=O)[C@H](CCCCN)NC(=O)[C@@H](NC(=O)[C@H](Cc1ccc(O)cc1)NC(=O)[C@H](CCC(=O)O)NC(=O)[C@H](CCC(=O)O)NC(=O)[C@@H](NC(=O)[C@H](CCCCN)NC(=O)[C@H](CCCCN)NC(=O)[C@H](CC(=O)O)NC(=O)[C@H](Cc1c[nH]c2ccccc12)NC(=O)[C@H](CCC(=O)O)NC(=O)[C@H](CCC(=O)O)NC(=O)[C@H](Cc1c[nH]c2ccccc12)NC(=O)[C@@H](NC(=O)[C@H](CCSC)NC(C)=O)[C@@H](C)O)[C@@H](C)CC)[C@@H](C)O)[C@@H](C)CC)C(=O)N[C@@H](CCCCN)C(=O)N[C@@H](CCCCN)C(=O)N[C@@H](CO)C(=O)N[C@@H](CCC(=O)O)C(=O)N[C@@H](CCC(=O)O)C(=O)N[C@@H](CCC(N)=O)C(N)=O` [MT-SC25EK], the IC50 in experiment [1] stood at 2 ± 0.9 nM. Also, the “CD data (with N36) Tm (°C)” value in experiment [2] amounted to 69.9 °C.
